These results are taken from publication PMC9365860 (Cell Reports, 2022).

The target of the test is Recombinant stabilized SARS-CoV-2 spike for ELISA (Wuhan) (SARS-CoV-2, Wuhan, stabilised). The test can be described thus: ELISA. The following applies: both partners purified.

B1: P008_60 F(ab')2 (other)
VH: EVQLVESGGGVVQPGRSLRLTCAASGFIFSSYGMHWVRQAPGKGLEWVAVISYDGSYKYYADSVKGRFTISRDNSKNTLYLQMNSLRAEDTAVYYCTKADYYDFWSGYQKTYYYYMDVWGKGTTVTISS
VL: DIQLTQSPGTLSLSPGERATLS[letters of about 80 residues omitted]ITFGQGTRLEIK
In the case of B1, the binding result is listed as “binds”.
